# Values quoted from earlier work in publication PMC10467137, “In Silico–Ex Vitro Iteration Strategy for Affinity Maturation of Anti-Ricin Peptides and the SPR Biosensing Application” (2023).
# Target: ricin (Ricinus communis, UniProt P02879)
# Conditions: cited from earlier work
smiles,measurement,value
CC[C@H](C)[C@H](NC(=O)[C@H](CCC(=O)O)NC(=O)[C@H](CO)NC(=O)[C@H](Cc1c[nH]cn1)NC(=O)[C@H](Cc1c[nH]cn1)NC(=O)[C@H](Cc1c[nH]cn1)NC(=O)[C@H](CCCNC(=N)N)NC(=O)[C@H](Cc1c[nH]cn1)NC(=O)[C@@H]1CCCN1C(=O)[C@@H](N)Cc1c[nH]c2ccccc12)C(=O)NCC(=O)N[C@@H](Cc1c[nH]cn1)C(=O)O,Kd,1000 nM

# The match of structure and compound is tentative.
